According to PMC6672008, “Small molecule degraders of the hepatitis C virus protease reduce susceptibility to resistance mutations” (Nature Communications, 2019):
Values joined by “and” are separate entries in the source; they are usually repeats but may differ in a detail not shown here. Equal values may be shown once.

Protein sequences, listed by entry. Tags and fused reporters are not part of them. Residues count along the entry.
UniProt Q99IB8, 1031-1661 limits assumed: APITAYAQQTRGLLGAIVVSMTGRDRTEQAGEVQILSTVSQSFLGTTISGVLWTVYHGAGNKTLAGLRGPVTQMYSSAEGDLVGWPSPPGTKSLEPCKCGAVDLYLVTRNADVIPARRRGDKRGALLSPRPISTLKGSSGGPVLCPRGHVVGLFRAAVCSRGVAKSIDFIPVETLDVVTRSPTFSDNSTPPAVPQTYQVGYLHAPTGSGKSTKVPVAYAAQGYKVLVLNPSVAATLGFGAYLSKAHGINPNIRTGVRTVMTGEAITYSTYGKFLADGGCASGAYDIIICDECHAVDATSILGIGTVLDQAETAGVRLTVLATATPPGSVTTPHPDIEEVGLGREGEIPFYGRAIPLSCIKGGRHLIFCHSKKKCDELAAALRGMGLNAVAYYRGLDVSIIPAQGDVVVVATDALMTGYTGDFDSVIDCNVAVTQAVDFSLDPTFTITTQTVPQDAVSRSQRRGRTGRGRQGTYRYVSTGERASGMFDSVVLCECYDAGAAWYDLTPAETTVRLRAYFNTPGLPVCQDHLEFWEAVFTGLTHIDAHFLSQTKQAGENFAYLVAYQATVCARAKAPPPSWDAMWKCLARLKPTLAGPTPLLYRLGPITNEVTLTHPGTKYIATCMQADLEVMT
UniProt Q99IB8, 1662-1715 partner limits assumed: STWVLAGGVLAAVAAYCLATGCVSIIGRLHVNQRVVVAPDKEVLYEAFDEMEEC

Molecular target: HCV NS3/4A protease (Hepatitis C virus genotype 2a, UniProt Q99IB8)
Test: biochemical
Conditions: NS3/4A protease inhibition IC50, average value reported, average of n ≥ 3 independent experiments; cleavage measured 1 h at 30 °C

| Structure (SMILES) | IC50 |
| --- | --- |
| CCC[C@H](NC(=O)[C@@H]1[C@H]2CCC[C@H]2CN1C(=O)[C@@H](NC(=O)[C@@H](NC(=O)c1cnc(C(=O)NCCCCCCNc2cccc3c2CN(C2CCC(=O)NC2=O)C3=O)cn1)C1CCCCC1)C(C)(C)C)C(=O)C(=O)NC1CC1 (stereo partly drawn) [DGY-03-081] | 385 nM |
| CCC[C@H](NC(=O)[C@@H]1[C@H]2CCC[C@H]2CN1C(=O)[C@@H](NC(=O)[C@@H](NC(=O)c1cnc(C(=O)NCCOCCOCCNc2cccc3c2C(=O)N(C2CCC(=O)N(C)C2=O)C3=O)cn1)C1CCCCC1)C(C)(C)C)C(=O)C(=O)NC1CC1 (stereo partly drawn) [DGY-04-035-BUMP] | 277 nM |
| CCC[C@H](NC(=O)[C@@H]1[C@H]2CCC[C@H]2CN1C(=O)[C@@H](NC(=O)[C@@H](NC(=O)c1cnc(C(=O)NCCOCCOCCNc2cccc3c2C(=O)N(C2CCC(=O)NC2=O)C3=O)cn1)C1CCCCC1)C(C)(C)C)C(=O)C(=O)NC1CC1 (stereo partly drawn) [DGY-04-035] | 296 nM and 265 nM |
| CCC[C@H](NC(=O)[C@@H]1[C@H]2CCC[C@H]2CN1C(=O)[C@@H](NC(=O)[C@@H](NC(=O)c1cnc(C(=O)NCCOCCOCCOc2cc3c4c(cccc4c2)C(=O)N(C2CCC(=O)N(C)C2=O)C3=O)cn1)C1CCCCC1)C(C)(C)C)C(=O)C(=O)NC1CC1 (stereo partly drawn) [DGY-08-097-BUMP] | 76 nM |

Same assay, conditions: NS3/4A protease inhibition IC50, single experiments, individual independent experiments (source data)

| Structure (SMILES) | IC50 |
| --- | --- |
| CCC[C@H](NC(=O)[C@@H]1[C@H]2CCC[C@H]2CN1C(=O)[C@@H](NC(=O)[C@@H](NC(=O)c1cnc(C(=O)NCCOCCOCCOc2cc3c4c(cccc4c2)C(=O)N(C2CCC(=O)N(C)C2=O)C3=O)cn1)C1CCCCC1)C(C)(C)C)C(=O)C(=O)NC1CC1 (stereo partly drawn) [DGY-08-097-BUMP] | 118 nM and 32 nM and 78 nM |
| CCC[C@H](NC(=O)[C@@H]1[C@H]2CCC[C@H]2CN1C(=O)[C@@H](NC(=O)[C@@H](NC(=O)c1cnc(C(=O)NCCOCCOCCOc2cc3c4c(cccc4c2)C(=O)N(C2CCC(=O)NC2=O)C3=O)cn1)C1CCCCC1)C(C)(C)C)C(=O)C(=O)NC1CC1 (stereo partly drawn) [DGY-08-097] | 258 nM and 192 nM and 291 nM |
